# Library screen at single concentrations

Data taken from ChEMBL document CHEMBL3988442, “University of Dundee, Small-Polar-MMV Screening Library” (2021).

Results are given as percent effect. How 0% and 100% were set is not recorded. Most values in the screen are low, and negative values occur. Many other results are left out here, so strong results are more common than in the screen. A dash means the value is not listed here; it may have been measured.

Mtb cholesterol medium: 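Growth of Mycobacterium tuberculosis over 4 days (cholesterol / DPPC medium with tyloxapol); the read-out is not stated. Tested at 500 µM. The record gives no direction; compounds that gave an IC50 in retests scored well above the rest, so higher reads as more growth inhibition. About 18,000 compounds were tested under these conditions; 5% (about 900) showed 50% or more at least once.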
Mtb glucose medium: 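Whole-cell growth test on Mycobacterium tuberculosis, read after 3 days in glucose-containing 7H9 medium; the read-out is not stated. Tested at 500 µM. Direction is inferred from retests: higher values go with more growth inhibition. About 18,000 compounds were tested under these conditions; 7.9% (about 1,400) showed 50% or more at least once.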

NC(=O)c1cc(N2CCOCC2)nc2ccc(F)cc12 gave Mtb cholesterol medium: -14%.
COc1ccc(C(N)CO)c2ccccc12 (stereo unspecified) gave Mtb cholesterol medium: 55.94%; Mtb glucose medium: 59.19%.
O=C(NC1CCCc2occc21)c1cccnc1 (stereo unspecified) gave Mtb glucose medium: 58%.
COCc1noc(-c2cc(S(N)(=O)=O)cc(C)c2C)n1 gave Mtb cholesterol medium: 1.711%.
OC[C@@H]1CNC[C@H]1C1CCN(Cc2ccco2)CC1 gave Mtb glucose medium: 9.798%.
Fc1ccc(CSc2nnnn2CC2CCCO2)cc1 (stereo unspecified) gave Mtb cholesterol medium: 84.57%; Mtb glucose medium: 89.4%.
CN(Cc1cc[nH]n1)C(=O)C1COc2ccccc2C1 (stereo unspecified) gave Mtb glucose medium: 28.57%.
NCCCNS(=O)(=O)c1ccc(Cl)cc1 gave Mtb glucose medium: 44.74%.
Cn1ccc(NC(=O)CN2CCC[C@@H]2C(N)=O)n1 gave Mtb cholesterol medium: 0.1837%.
CCn1ccc(CNC(=O)CCn2cc(Br)c(C)n2)n1 gave Mtb cholesterol medium: 20.04%.
CC(C)CCNC(=O)c1ccc2c(c1)C(=O)N(C)C2=O gave Mtb cholesterol medium: -11.75%.
NS(=O)(=O)N1CCC(Cc2ccccc2)CC1 gave Mtb cholesterol medium: 46.21%; Mtb glucose medium: 49.47%.
CCc1nc(C#N)c(NCc2ccc3c(c2)OCO3)o1 gave Mtb cholesterol medium: 72.84%; Mtb glucose medium: 79.87%.
O=C1NCCOc2ccc(Br)cc21 gave Mtb cholesterol medium: -12.24%.
Fc1ccc2c(c1)CNCCO2 gave Mtb cholesterol medium: 23.42%; Mtb glucose medium: 28.34%.
O=C(NCc1ccccn1)c1n[nH]cc1I gave Mtb glucose medium: 25.64%.
COc1cccc2c(N)c(C)cnc12 gave Mtb glucose medium: -38.1%.
NCC(=O)Nc1cccc(F)c1 gave Mtb cholesterol medium: -18.94%; Mtb glucose medium: 0.5016%.
Cc1cc(C(=O)N[C@@H]2CC[C@@H](N)C2)ccc1O gave Mtb glucose medium: -1.245%.
Cc1noc(C)c1CN1CCC(O)CC1 gave Mtb glucose medium: -0.2193%.
O=C(Cc1cn2ccsc2n1)NCC1CCC1 gave Mtb cholesterol medium: 74.9%; Mtb glucose medium: 82.37%.
CC(=O)N1CCc2onc(-c3ccc(F)c(F)c3)c2C1 gave Mtb cholesterol medium: 53.05%; Mtb glucose medium: 51.13%.
CC(NCCO)c1ccc(Br)s1 (stereo unspecified) gave Mtb glucose medium: 11.5%.
OCCCC(Nc1ccccn1)c1ccccc1 (stereo unspecified) gave Mtb cholesterol medium: 73.07%; Mtb glucose medium: 57.95%.
Cc1noc(C)c1S(=O)(=O)NCC1CCCOC1 (stereo unspecified) gave Mtb glucose medium: 1.546%.
NC(=O)CC1CNC1 gave Mtb cholesterol medium: -1.029%.
OCc1c[nH]c2cccc(F)c12 gave Mtb glucose medium: 23.9%.
CNC(=O)Cc1csc(NC(=O)c2cccs2)n1 gave Mtb glucose medium: 25.96%.
NCc1cc(C2CC2)cs1 gave Mtb glucose medium: 16.31%.
CCS(=O)(=O)NCC(N)c1ccc(C(C)C)cc1 (stereo unspecified) gave Mtb cholesterol medium: 67.41%; Mtb glucose medium: 74.45%.
CCC[C@H]1CN(C(=O)CCCc2cn[nH]c2)C[C@@H]1N gave Mtb glucose medium: 3.053%.
NC1CC(=O)N(Cc2ccccc2C(F)(F)F)C1 (stereo unspecified) gave Mtb cholesterol medium: 8.657%.
COc1cc(C(=O)NCC(=O)c2ccco2)ccc1F gave Mtb cholesterol medium: 43.49%; Mtb glucose medium: 35.21%.
Cc1cncc(C(=O)NCCc2cncn2C)c1 gave Mtb cholesterol medium: -1.754%.
CC(C)(C)C(=O)Nc1cccc(C(=O)NC2CC2)c1 gave Mtb glucose medium: 12.23%.
CNCC(=O)NCc1cnc(-c2cccc(OC)c2)s1 gave Mtb cholesterol medium: 31.42%; Mtb glucose medium: 49.45%.
Cl.Cl.N[C@@H]1CCN(c2cccnc2)C1 gave Mtb cholesterol medium: 10.88%; Mtb glucose medium: 23.49%.

Repeated from the top, 3 entries:

SMILES	Mtb cholesterol medium	Mtb glucose medium
NC(=O)c1cc(N2CCOCC2)nc2ccc(F)cc12	-14%	-
COc1ccc(C(N)CO)c2ccccc12 (stereo unspecified)	55.94%	59.19%
O=C(NC1CCCc2occc21)c1cccnc1 (stereo unspecified)	-	58%